Test results reported in patent US11648287B2, “Composition for the treatment of intracellular bacterial infection” (priority 2017, dated 2023).

Legend:
Raw 264.7 cells = assay: Confocal fluorescence microscopy of intracellular distribution of gentamicin and photosensitizer; assay type: cell-based, mouse; conditions: for intracellular distribution: 10 μg/ml fluorescently labelled gentamicin + 1 μg/ml TPCS2a overnight
[1] = system: RAW 264.7 macrophage cell line; assay: Fluorescence microscopy of intracellular localization of vancomycin and TPCS2a; assay type: cell-based, mouse; conditions: 1 μg/ml TPCS2a and 50 μg/mL BODIPY FL-Vancomycin for 18 h
[2] = after illumination of 2 minutes

Substance | site of accumulation after release (Raw 264.7 cells; [2]) | intracellular distribution (Raw 264.7 cells; [2]) | intracellular distribution (Raw 264.7 cells; without illumination) | intracellular localization ([1]; after illumination for 120 s) | intracellular localization ([1]; before illumination)
gentamicin | seemed to accumulate at the nuclei | released into the cytosol | localized within cellular compartments in the periphery of the cells |  | 
tetraphenyl chlorin disulphonate [TPCS2a] |  | released into the cytosol | localized within cellular compartments in the periphery of the cells | released from the endocytic vesicles | localized in small spots inside the cells, corresponding to endocytic vesicles
